# Laboratory results from the supplement of paper PMC9931576.
# Human monoclonal antibodies against the spike receptor-binding domain (heavy:light variable regions). IC50 against pseudoviruses bearing the spike of naturally observed variants; lower = stronger; >10 µg/ml means not reached at the top dose. No active / inactive call. The stated detection limit is 0.0005 µg/ml; values near or below 0.001 µg/ml lie at the floor of the assay.
# B1: BD55-6277 (protein)
# chain 1: QVQLVESGGGVVQPGRSLRLSCAASGFTFSNFGMHWVRQAPGKGLEWLSVIWNDGSNKYYTESVKGRFTVSRDNSKNMLYLQINDLRAEDTAVYYCARDSPCSGPTCYFDYNWFDYWGQGTLVTVSS
# chain 2: EIALTQSPGTLSLSPGERAVLSCRASQSVSRNLAWYQQKPGQAPRLLIYDASNRATGIPARFSGSGSGTDFILTISSLEPEDFAVYYCQQRHTWPPAYTFGQGTKLEIK
# B2: BD55-6278 (protein)
# chain 1: QPQLQESGPGLVRPSETVSLTCSVSGGSIGSRSFFWGWIRQPPGKGLEWIGSIYSGGSTSYNPSLNSRATISADTSKNQFSLKLSSVTAADTAVYYCARYGGGDPYFDTWGQGTLVTVSS
# chain 2: DIQMTQSPSTLSASVGDRVTITCRASQSVSRWLAWYQQKPGKAPKLLIYMASILESGVPSRFSGSGSGTEFTLIISSLQPDDFATYYCQQYNSESYTFGQGTKLEIK
# B3: BD55-6288 (protein)
# chain 1: QVQLQESGPGLVKPSGTLSLTCAVSGGSISSSSWWSWVRQPPGKGLEWIGEMYHSGSTNYNPSLKSRVTISVDRSKNHFSLKLTSVTAADTAVYYCARTTYYFDSSDSHLNSNPYYFDSWGQGTLVTVSS
# chain 2: QSVLTQPPSVSGAPGQRVTISCTGSSSNIGAGYDVHWYRQLPGTAPKLLIYGNTNRPSGVPDRFSGSQSGTSASLAITGLQAEDEGNYYCQSYDNSLSGFYVFGGGTKLTVL
# B4: BD55-6274 (protein)
# chain 1: QVQLVQSGAEVKKPGASVKVSCKASGYTFTSYGITWVRQAPGQGLEWMGWIAAYSGHTNYAQKLQDRFTMTRDTSTTTVYMELRSLRSDDTAVYYCARRSGYSGYDREHGKSPGDYFYMDVWGKGTTVTVSS
# chain 2: SYELTQPPSVSVSPGQTARITCSGDALPQKYAYWYQQKSGQAPVLVIYEDTKRPSGIPERFSGSKSGTMATLTISGAQVEDEADYYCYSTYSSADRGVFGGGTALTVL
# B5: BD55-6282 (protein)
# chain 1: QVQLVQSGAEVKKPGSSVKVSCKASGGIFSNDAFSWVRQAPGQGLEWMGGILPIFHRPNYAQKFQGRLTITADESTSTAYMELSSLRFEDTAIYYCARDQGSIAVAYDAFDVWGQGTMVTVSS
# chain 2: QSVLTQPPSASGTPGQMVTISCSGSSSNIGSNHVYWYQQLPGTAPKLLMDRNNQRPSGVPDRFSGSKSGTSASLAISGLRSEDEADYYCAAWDDSLSGPVFGGGTKLTVL
# B6: BD55-6275 (protein)
# chain 1: QITLKESGPTLVKPTQTLTLTCTFSGFSLTTDAVAVGWIRQPPGKALEWLALVYWDDDKRYSPSLKNRLTITKDTSKNQVVLTMTNMGPVDTGTYYCAHFQDRVGATRVCVFDSWGQGTLVTVSS
# chain 2: QSVLTQPPSVSEAPRQRVTISCSGSSSNIGNNVVSWYQQLPGKAPKLLIYYDDRLPSGVSDRFSGSKSGTSASLAISGLQSEDEADYYCATWDDSLNGVVLGGGTKLTVL
# Molecular target: SARS-CoV-2 Omicron BA.1 spike pseudovirus
# Assay: pseudovirus neutralization IC50; higher = weaker neutralization
# Procedure: (§1)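 Single-round VSV luciferase pseudovirus mixed with antibody dilutions for 1 h and put on Huh-7 cells for about a day; IC50 from the dose curve.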
row,Binder,pseudovirus neutralization IC50 [µg/mL]
1,B1,6.49
2,B2,> 10
3,B3,> 10
4,B4,> 10
5,B5,7.14
6,B6,> 10

# Molecular target: SARS-CoV-2 Omicron BA.2 spike pseudovirus
# Assay: as above
# Procedure: as §1
row,Binder,pseudovirus neutralization IC50 [µg/mL]
1,B1,9.23
2,B2,> 10
3,B3,> 10
4,B4,> 10
5,B5,> 10
6,B6,> 10

# Molecular target: SARS-CoV-2 Omicron BA.2.75 spike pseudovirus
# Assay: as above
# Procedure: as §1
row,Binder,pseudovirus neutralization IC50 [µg/mL]
1,B1,5.01
2,B2,> 10
3,B3,> 10
4,B4,> 10
5,B5,> 10
6,B6,> 10

# Molecular target: SARS-CoV-2 Omicron BA.5 spike pseudovirus
# Assay: as above
# Procedure: as §1
row,Binder,pseudovirus neutralization IC50 [µg/mL]
1,B1,2.81
2,B2,> 10
3,B3,> 10
4,B4,> 10
5,B5,> 10
6,B6,> 10

# Molecular target: SARS-CoV-2 Omicron BQ.1.1 spike pseudovirus
# Assay: as above
# Procedure: as §1
row,Binder,pseudovirus neutralization IC50 [µg/mL]
1,B1,3.86
2,B2,> 10
3,B3,> 10
4,B4,> 10
5,B5,> 10
6,B6,> 10

# Molecular target: SARS-CoV-2 Omicron XBB spike pseudovirus
# Assay: as above
# Procedure: as §1
row,Binder,pseudovirus neutralization IC50 [µg/mL]
1,B1,3.47
2,B2,> 10
3,B3,> 10
4,B4,> 10
5,B5,> 10
6,B6,> 10

# Molecular target: SARS-CoV-2 early D614G spike pseudovirus
# Assay: as above
# Procedure: as §1
row,Binder,pseudovirus neutralization IC50 [µg/mL]
1,B1,2.17
2,B2,> 10
3,B3,> 10
4,B4,> 10
5,B5,0.0134
6,B6,> 10
